Source: paper PMC11617668, “Developing Allosteric Inhibitors of SARS‐CoV‐2 RNA‐Dependent RNA Polymerase” (Chemmedchem, 2024)

Biological target: SARS‐CoV‐2 RdRp complex (nsp12, nsp7, nsp8) (Severe acute respiratory syndrome coronavirus 2, UniProt P0DTD1)
Experiment: Fluorescence-based RdRp polymerase assay (SYBR Green I RNA extension)
Type: biochemical
Details: 50 min, read-out: residual activity (RA) of the SARS‐CoV‐2 RdRp complex

CNC(=O)c1cc(Oc2ccc(NC(=O)Nc3ccc(Cl)c(C(F)(F)F)c3)cc2)ccn1 [sorafenib, reference compound]
remaining activity at 10 µM: 72%
